Measurements reported in publication PMC4322620 (Frontiers in Pharmacology, 2015).

Chains of the proteins cited; added tags and fusions are not shown.
UniProt P30989, whole entry, looked up: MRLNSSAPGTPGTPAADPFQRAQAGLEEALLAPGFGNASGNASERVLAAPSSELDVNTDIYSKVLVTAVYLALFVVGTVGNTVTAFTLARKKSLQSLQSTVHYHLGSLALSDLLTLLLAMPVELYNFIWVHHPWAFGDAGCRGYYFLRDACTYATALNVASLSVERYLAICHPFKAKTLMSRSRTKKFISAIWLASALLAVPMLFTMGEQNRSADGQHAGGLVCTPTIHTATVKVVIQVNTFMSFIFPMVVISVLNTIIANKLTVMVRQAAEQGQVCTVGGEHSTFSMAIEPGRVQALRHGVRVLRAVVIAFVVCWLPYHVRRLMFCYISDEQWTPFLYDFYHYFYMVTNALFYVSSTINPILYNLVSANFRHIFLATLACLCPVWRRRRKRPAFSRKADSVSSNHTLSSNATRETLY

Assays:
[1] = biological target: neurotensin receptors (HT-29 cells) (Homo sapiens, UniProt P30989); assay: Desensitization of neurotensin receptor activation (calcium mobilization after pre-exposure); type: cell-based; settings: for DC50: 10 min pre-exposure (10 μM–100 pM), wash, 15 min without peptide, re-exposure to same peptide at 1 μM, calcium mobilization, quadruplicate experiments; for DC50/EC50: ratio of desensitization to agonist potency
NTS1 (HT-29 cells) = NTS1 (HT-29 cells) (Homo sapiens, UniProt P30989); assay: Calcium activation assay (intracellular calcium mobilization); type: cell-based; settings: Fluo-4-NW calcium fluorescence, peptide 10 μM–10 pM, % of 1 μM peak response, quadruplicate experiments

Compound `CC[C@H](C)[C@H](NC(=O)[C@H](Cc1ccc(O)cc1)NC(=O)[C@@H]1CCCN1C(=O)[C@H](CCCCN)NC(=O)[C@H](CCCCN)NC(=O)[C@@H](NC(=O)[C@H](C)NC(=O)[C@H](CC(N)=O)NC(=O)[C@H](CO)NC(=O)CNC(=O)CNC(=O)[C@H](CCC(=O)O)NC(=O)[C@H](CCC(=O)O)NC(=O)[C@H](CO)NC(=O)[C@@H]1CCC(=O)N1)[C@@H](C)O)C(=O)N[C@@H](CC(C)C)C(=O)O` has a DC50 [1] of 144 nM, a DC50/EC50 [1] of 131 and an EC50 (NTS1 (HT-29 cells)) of 1.1 nM.
`CC[C@H](C)[C@H](NC(=O)[C@H](Cc1ccc(O)cc1)NC(=O)[C@@H]1CCCN1C(=O)[C@H](CCCCN)NC(=O)[C@H](CCCCN)NC(=O)[C@@H](NC(=O)[C@H](C)NC(=O)[C@H](CC(N)=O)NC(=O)[C@H](CO)NC(=O)CCCCCCNC(=O)[C@H](CCC(=O)O)NC(=O)[C@H](CCC(=O)O)NC(=O)[C@H](CO)NC(=O)[C@@H]1CCC(=O)N1)[C@@H](C)O)C(=O)N[C@@H](CC(C)C)C(=O)O` showed a DC50/EC50 [1] of 168.
Compound `CC[C@H](C)[C@H](NC(=O)[C@H](Cc1ccc(O)cc1)NC(=O)[C@@H]1CCCN1C(=O)[C@H](CCCCN)NC[C@@H](N)CCCCN)C(=O)N[C@@H](CC(C)C)C(=O)O` has a DC50 [1] of 11.8 nM and an EC50 (NTS1 (HT-29 cells)) of 1.1 nM.
`CC[C@H](C)[C@H](NC(=O)[C@H](Cc1ccc(O)cc1)NC(=O)[C@@H]1CCCN1C(=O)[C@H](CCCCN)NC(=O)[C@H](CCCCN)NC(=O)[C@@H](NC(=O)[C@H](C)NC(=O)[C@H](CC(N)=O)NC(=O)[C@H](CCC(=O)O)NC(=O)[C@H](CCC(=O)O)NC(=O)[C@H](CO)NC(=O)[C@@H]1CCC(=O)N1)[C@@H](C)O)C(=O)N[C@@H](CC(C)C)C(=O)O` showed a DC50 [1] of 329 nM, a DC50/EC50 [1] of 22 and an EC50 (NTS1 (HT-29 cells)) of 15 nM.
Work on `CCCCCCCCCCCCCCCC(=O)NCCCC[C@H](NC(=O)[C@H](CCCCN)NC(=O)[C@H](CC(N)=O)NC(=O)[C@H](CO)NC(=O)CNC(=O)CNC(=O)[C@H](CCC(=O)O)NC(=O)[C@H](CCC(=O)O)NC(=O)[C@H](CO)NC(=O)[C@@H]1CCC(=O)N1)C(=O)N[C@@H](CCCCN)C(=O)N[C@@H](CCCCN)C(=O)N1CCC[C@H]1C(=O)N[C@@H](Cc1ccc(O)cc1)C(=O)N[C@H](C(=O)N[C@@H](CC(C)C)C(=O)O)[C@@H](C)CC` yielded a DC50/EC50 [1] of 0.1.
